# HIV-1 LAI Vif substitutions under APOBEC3G selection

Source: Langley et al. 2025, preprint (doi:10.1101/2025.10.20.683452), supplementary data.

Vif of LAI (a laboratory-adapted subtype B strain), residues 12-115; positions count from the first residue of the whole protein:
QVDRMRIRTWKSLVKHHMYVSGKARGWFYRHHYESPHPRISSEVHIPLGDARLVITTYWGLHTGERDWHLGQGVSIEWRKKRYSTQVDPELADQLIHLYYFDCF

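A pool of vif mutants was passaged twice, 72 h each, on SupT1 cells that express APOBEC3G. Each of three replicates was sequenced after round two and set against the merged round-one pool. The overlap of vif with pol had been removed, so integrase is unaffected.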

The score is log2 enrichment against the wild-type codon: higher is better tolerated, lower is depleted.
Substitutions are written as wild-type residue, site number, new residue.
All changes here are to serine.
The median of three replicates is given.
Input reads are the counts in the merged round-one pool, before selection.
Positive scores are uncertain; some enriched variants did not exclude APOBEC3G in a separate test.
Replicates agree only moderately (rank correlation about 0.4-0.65); scores from under about 50 input reads tend to be too high.
Not every substitution is listed.

* Q12S (input reads 519): -1.52
* D14S (input reads 438): -2.04
* R15S (input reads 75): 0.09
* M16S (input reads 366): -3.48
* R17S (input reads 68): -0.65
* I18S (input reads 22): -1.85
* R19S (input reads 177): 1.65
* W21S (input reads 815): -0.82
* K22S (input reads 34): -0.09
* K26S (input reads 144): 3.33
* H28S (input reads 840): -0.78
* M29S (input reads 78): 0.89
* K34S (input reads 692): -2.48
* A35S (input reads 464): -0.87
* R36S (input reads 238): 0.49
* G37S (input reads 21): 1.91
* R41S (input reads 30): -1.14
* H42S (input reads 98): 1.00
* E45S (input reads 968): -2.21
* H48S (input reads 481): -1.78
* E54S (input reads 40): 1.00
* V55S (input reads 848): -2.34
* L59S (input reads 17): -1.50
* A62S (input reads 732): -2.10
* V65S (input reads 395): -3.68
* T67S (input reads 285): 1.20
* Y69S (input reads 404): -1.13
* G71S (input reads 601): -1.78
* H73S (input reads 16): -0.61
* T74S (input reads 511): -1.49
* G75S (input reads 46): 2.38
* E76S (input reads 969): -2.16
* D78S (input reads 39): 0.61
* W79S (input reads 416): -2.37
* L81S (input reads 409): -1.80
* G82S (input reads 405): -2.40
* G84S (input reads 734): -2.06
* V85S (input reads 791): -3.38
* E88S (input reads 264): -1.48
* R90S (input reads 655): -2.49
* T96S (input reads 335): -1.94
* P100S (input reads 20): 0.61
* E101S (input reads 107): -3.36
* D104S (input reads 98): -3.15
* L106S (input reads 192): -1.75
* I107S (input reads 298): -2.75
* H108S (input reads 73): -1.98
* Y110S (input reads 53): -3.09
* F112S (input reads 98): -1.04

A selection of 3 entries from above:

mutation,input reads,log2 enrichment (median)
I18S,22,-1.85
T74S,511,-1.49
K26S,144,3.33